From PMC9104152, “Phosphoproteomics Unravel HBV Triggered Rewiring of Host Phosphosignaling Events” (International Journal of Molecular Sciences, 2022)

B1: P54253 1xPhospho [S775(100)] (protein, UniProt P54253 1-815, looked up)
Ataxin-1: MKSNQERSNECLPPKKREIPATSRSSEEKAPTLPSDNHRVEGTAWLPGNPGGRGHGGGRHGPAGTSVELGLQQGIGLHKALSTGLDYSPPSAPRSVPVATTLPAAYATPQPGTPVSPVQYAHLPHTFQFIGSSQYSGTYASFIPSQLIPPTANPVTSAVASAAGATTPSQRSQLEAYSTLLANMGSLSQTPGHKAEQQQQQQQQQQQQHQHQQQQQQQQQQQQQQHLSRAPGLITPGSPPPAQQNQYVHISSSPQNTGRTASPPAIPVHLHPHQTMIPHTLTLGPPSQVVMQYADSGSHFVPREATKKAESSRLQQAIQAKEVLNGEMEKSRRYGAPSSADLGLGKAGGKSVPHPYESRHVVVHPSPSDYSSRDPSGVRASVMVLPNSNTPAADLEVQQATHREASPSTLNDKSGLHLGKPGHRSYALSPHTVIQTTHSASEPLPVGLPATAFYAGTQPPVIGYLSGQQQAITYAGSLPQHLVIPGTQPLLIPVGSTDMEASGAAPAIVTSSPQFAAVPHTFVTTALPKSENFNPEALVTQAAYPAMVQAQIHLPVVQSVASPAAAPPTLPPYFMKGSIIQLANGELKKVEDLKTEDFIQSAEISNDLKIDSSTVERIEDSHSPGVAVIQFAVGEHRAQVSVEVLVEYPFFVFGQGWSSCCPERTSQLFDLPCSKLSVGDVCISLTLKNLKNGSVKKGQPVDPASVLLKHSKADGLAGSRHRYAEQENGINQGSAQMLSENGELKFPEKMGLPAAPFLTKIEPSKPAATRKRRWSAPESRKLEKSEDEPPLTLPKPSLIPQEVKICIEGRSNVGK
modifications: phosphorylated S775
B2: P25705 (protein, UniProt P25705 1-553, looked up)
chain: MLSVRVAAAVVRALPRRAGLVSRNALGSSFIAARNFHASNTHLQKTGTAEMSSILEERILGADTSVDLEETGRVLSIGDGIARVHGLRNVQAEEMVEFSSGLKGMSLNLEPDNVGVVVFGNDKLIKEGDIVKRTGAIVDVPVGEELLGRVVDALGNAIDGKGPIGSKTRRRVGLKAPGIIPRISVREPMQTGIKAVDSLVPIGRGQRELIIGDRQTGKTSIAIDTIINQKRFNDGSDEKKKLYCIYVAIGQKRSTVAQLVKRLTDADAMKYTIVVSATASDAAPLQYLAPYSGCSMGEYFRDNGKHALIIYDDLSKQAVAYRQMSLLLRRPPGREAYPGDVFYLHSRLLERAAKMNDAFGGGSLTALPVIETQAGDVSAYIPTNVISITDGQIFLETELFYKGIRPAINVGLSVSRVGSAAQTRAMKQVAGTMKLELAQYREVAAFAQFGSDLDAATQQLLSRGVRLTELLKQGQYSPMAIEEQVAVIYAGVRGYLDKLEPSKITKFENAFLSHVVSQHQALLGTIRADGKISEQSDAKLKEIVTNFLAGFEA
modifications: full-length
B3: P42224 1xPhospho [S727(100)] (protein, UniProt P42224 2-750, looked up)
Signal transducer and …: SQWYELQQLDSKFLEQVHQLYDDSFPMEIRQYLAQWLEKQDWEHAANDVSFATIRFHDLLSQLDDQYSRFSLENNFLLQHNIRKSKRNLQDNFQEDPIQMSMIIYSCLKEERKILENAQRFNQAQSGNIQSTVMLDKQKELDSKVRNVKDKVMCIEHEIKSLEDLQDEYDFKCKTLQNREHETNGVAKSDQKQEQLLLKKMYLMLDNKRKEVVHKIIELLNVTELTQNALINDELVEWKRRQQSACIGGPPNACLDQLQNWFTIVAESLQQVRQQLKKLEELEQKYTYEHDPITKNKQVLWDRTFSLFQQLIQSSFVVERQPCMPTHPQRPLVLKTGVQFTVKLRLLVKLQELNYNLKVKVLFDKDVNERNTVKGFRKFNILGTHTKVMNMEESTNGSLAAEFRHLQLKEQKNAGTRTNEGPLIVTEELHSLSFETQLCQPGLVIDLETTSLPVVVISNVSQLPSGWASILWYNMLVAEPRNLSFFLTPPCARWAQLSEVLSWQFSSVTKRGLNVDQLNMLGEKLLGPNASPDGLIPWTRFCKENINDKNFPFWLWIESILELIKKHLLPLWNDGCIMGFISKERERALLKDQQPGTFLLRFSESSREGAITFTWVERSQNGGEPDFHAVEPYTKKELSAVTFPDIIRNYKVMAAENIPENPLKYLYPNIDKDHAFGKYYSRPKEAPEPMELDGPKGTGYIKTELISVSEVHPSRLQTTDNLLPMSPEEFDEVSRIVGSVEFDSMMNTV
modifications: phosphorylated S727
B4: A0JNW5 1xPhospho [S/T] (protein, UniProt A0JNW5 1-1464, looked up)
Bridge-like lipid transfer …: MAGIIKKQILKHLSRFTKNLSPDKINLSTLKGEGELKNLELDEEVLQNMLDLPTWLAINKVFCNKASIRIPWTKLKTHPICLSLDKVIMEMSTCEEPRSPNGPSPIATASGQSEYGFAEKVVEGISVSVNSIVIRIGAKAFNASFELSQLRIYSVNAHWEHGDLRFTRIQDPQRGEVLTFKEINWQMIRIEADATQSSHLEIMCAPVRLITNQSKIRVTLKRRLKDCNVIATKLVLILDDLLWVLTDSQLKAMVQYAKSLSEAIEKSTEQRKSMAPEPTQSSTVVASAQQVKTTQTSNAPDVNDAIVKLFNDFDVKETSHHLVISHLDLHICDDIHAKEKESNRRITGGAMQLSFTQLTIDYYPYHKAGDSCNHWMYFSDATKTKNGWANELLHEFECNVEMLKQAVKDHNVGSPPKSPTHASPQHTQTEKDYPLKGTCRTPSVLSQQSKAKLMSSSVVVRLADFNIYQVSTAEQCRSSPKSMICCNKKSLYLPQEMSAVYIEFTEYYYPDGKDFPIPSPNLYSQLNALQFTVDERSILWLNQFLLDLKQSLNQFMAVYKLNDNSKSDEHVDVRVDGLMLKFVIPSEVKSECHQDQPRAISIQSSEMIATNTRHCPNCRHSDLEALFQDFKDCDFFSKTYTSFPKSCDNFNLLHPIFQRHAHEQDTKMHEIYKGNITPQLNKNTLKTSAATDVWAVYFSQFWIDYEGMKSGKGRPISFVDSFPLSIWICQPTRYAESQKEPQTCNQVSLNTSQSESSDLAGRLKRKKLLKEYYSTESEPLTNGGQKPSSSDTFFRFSPSSSEADIHLLVHVHKHVSMQINHYQYLLLLFLHESLILLSENLRKDVEAVTGSPASQTSICIGILLRSAELALLLHPVDQANTLKSPVSESVSPVVPDYLPTENGDFLSSKRKQISRDINRIRSVTVNHMSDNRSMSVDLSHIPLKDPLLFKSASDTNLQKGISFMDYLSDKHLGKISEDESSGLVYKSGSGEIGSETSDKKDSFYTDSSSILNYREDSNILSFDSDGNQNILSSTLTSKGNETIESIFKAEDLLPEAASLSENLDISKEETPPVRTLKSQSSLSGKPKERCPPNLAPLCVSYKNMKRSSSQMSLDTISLDSMILEEQLLESDGSDSHMFLEKGNKKNSTTNYRGTAESVNAGANLQNYGETSPDAISTNSEGAQENHDDLMSVVVFKITGVNGEIDIRGEDTEICLQVNQVTPDQLGNISLRHYLCNRPVGSDQKAVIHSKSSPEISLRFESGPGAVIHSLLAEKNGFLQCHIENFSTEFLTSSLMNIQHFLEDETVATVMPMKIQVSNTKINLKDDSPRSSTVSLEPAPVTVHIDHLVVERSDDGSFHIRDSHMLNTGNDLKENVKSDSVLLTSGKYDLKKQRSVTQATQTSPGVPWPSQSANFPEFSFDFTREQLMEENESLKQELAKAKMALAEAHLEKDALLHHIKKMTVE
modifications: phosphorylated
B5: O75152 1xPhospho [S108(100)] (protein, UniProt O75152 1-810, looked up)
Zinc finger CCCH …: MPNQGEDCYFFFYSTCTKGDSCPFRHCEAAIGNETVCTLWQEGRCFRQVCRFRHMEIDKKRSEIPCYWENQPTGCQKLNCAFHHNRGRYVDGLFLPPSKTVLPTVPESPEEEVKASQLSVQQNKLSVQSNPSPQLRSVMKVESSENVPSPTHPPVVINAADDDEDDDDQFSEEGDETKTPTLQPTPEVHNGLRVTSVRKPAVNIKQGECLNFGIKTLEEIKSKKMKEKSKKQGEGSSGVSSLLLHPEPVPGPEKENVRTVVRTVTLSTKQGEEPLVRLSLTERLGKRKFSAGGDSDPPLKRSLAQRLGKKVEAPETNIDKTPKKAQVSKSLKERLGMSADPDNEDATDKVNKVGEIHVKTLEEILLERASQKRGELQTKLKTEGPSKTDDSTSGARSSSTIRIKTFSEVLAEKKHRQQEAERQKSKKDTTCIKLKIDSEIKKTVVLPPIVASRGQSEEPAGKTKSMQEVHIKTLEEIKLEKALRVQQSSESSTSSPSQHEATPGARRLLRITKRTGMKEEKNLQEGNEVDSQSSIRTEAKEASGETTGVDITKIQVKRCETMREKHMQKQQEREKSVLTPLRGDVASCNTQVAEKPVLTAVPGITRHLTKRLPTKSSQKVEVETSGIGDSLLNVKCAAQTLEKRGKAKPKVNVKPSVVKVVSSPKLAPKRKAVEMHAAVIAAVKPLSSSSVLQEPPAKKAAVAVVPLVSEDKSVTVPEAENPRDSLVLPPTQSSSDSSPPEVSGPSSSQMSMKTRRLSSASTGKPPLSVEDDFEKLIWEISGGKLEAEIDLDPGKDEDDLLLELSEMIDS
modifications: phospho S108
B6: P45974 1xPhospho [T623(100)] (protein, UniProt P45974 2-858, looked up)
Ubiquitin carboxyl-terminal …: AELSEEALLSVLPTIRVPKAGDRVHKDECAFSFDTPESEGGLYICMNTFLGFGKQYVERHFNKTGQRVYLHLRRTRRPKEEDPATGTGDPPRKKPTRLAIGVEGGFDLSEEKFELDEDVKIVILPDYLEIARDGLGGLPDIVRDRVTSAVEALLSADSASRKQEVQAWDGEVRQVSKHAFSLKQLDNPARIPPCGWKCSKCDMRENLWLNLTDGSILCGRRYFDGSGGNNHAVEHYRETGYPLAVKLGTITPDGADVYSYDEDDMVLDPSLAEHLSHFGIDMLKMQKTDKTMTELEIDMNQRIGEWELIQESGVPLKPLFGPGYTGIRNLGNSCYLNSVVQVLFSIPDFQRKYVDKLEKIFQNAPTDPTQDFSTQVAKLGHGLLSGEYSKPVPESGDGERVPEQKEVQDGIAPRMFKALIGKGHPEFSTNRQQDAQEFFLHLINMVERNCRSSENPNEVFRFLVEEKIKCLATEKVKYTQRVDYIMQLPVPMDAALNKEELLEYEEKKRQAEEEKMALPELVRAQVPFSSCLEAYGAPEQVDDFWSTALQAKSVAVKTTRFASFPDYLVIQIKKFTFGLDWVPKKLDVSIEMPEELDISQLRGTGLQPGEEELPDIAPPLVTPDEPKGSLGFYGNEDEDSFCSPHFSSPTSPMLDESVIIQLVEMGFPMDACRKAVYYTGNSGAEAAMNWVMSHMDDPDFANPLILPGSSGPGSTSAAADPPPEDCVTTIVSMGFSRDQALKALRATNNSLERAVDWIFSHIDDLDAEAAMDISEGRSAADSISESVPVGPKVRDGPGKYQLFAFISHMGTSTMCGHYVCHIKKEGRWVIYNDQKVCASEKPPKDLGYIYFYQRVAS
modifications: phosphorylated T623

These molecules were tested on HepG2-NTCP cells (assay: TMT-based phosphoproteome profiling of HBV-infected vs mock HepG2-NTCP (HBV/mock ratio)). Settings: phosphosite abundance ratio of host protein, HBV-infected vs mock HepG2-NTCP, 7dpi, sheet Up-regulated.
Parameters: species or system human
B1 gave an HBV/mock of 1.71. With B2 the HBV/mock was 1.314.

Same assay, conditions: phosphosites of host proteins deregulated at 7dpi; sheet Up-regulated; HBV-infected vs mock HepG2-NTCP
Molecule B3 has an HBV/mock of 1.305. Molecule B4 has an HBV/mock of 1.353. For B5, the HBV/mock was 1.451. Molecule B6 has an HBV/mock of 1.3001.
